Results reported in patent US11473074.

Target: collagenase II from C. histolyticum

B1: neutral protease from C. histolyticum, isolated from the HIC CIP water wash of the collagenase manufacturing process (protein)
chain: QATHAQVRGVNSSGEHKILNGMFENGRYFLADSTRPSNGYILTYDANNQEYGFPGSLFSNLTGIFDSDRQKAGVDAHHNLTQVYDYYKNVLNRDSFDGKGASIISSVHVGNNLNNAFWNGRQILFGDGDGVTFSNLAKCLEVTAHEFTHAVTQSTAGLEYRFQSGALNEAFSDILGIAVHSDPNDWEIGEDIYTPNVAGDALRSMSNPRLYRQPDHMKDYLYWDYSMDKGGVHYNSGIPNKAAYLMGKEVGKDSMAKIYYHALVNYLTPQSTFEDARNAVVSSAIDLHGENSKEHKLAIKSWADVGVGEEAVR
- proteolytic digestion, fragments seen by SDS-PAGE: The 96 kDa fragment was recreated by exposing AUX-II to the neutral protease
